PubChem BioAssay AID1259414 | Drosophila RNAi Screening Center | 2018
The deposit covers about 24,000 reagents; shown is a random part of those with a known target gene and a result. Over the whole deposit, about 1,210 (5%) got an active call. 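Inactive calls also include excluded dsRNAs with several or no targets, genes unexpressed in JW18, and well A1, regardless of score.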 Entries without a mark were called inactive. Names joined by + are all predicted targets of the reagent.

Test: 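Genome-wide screen for host control of endosymbiont load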 (primary screen)
System: Drosophila JW18 cells infected with Wolbachia
Reagent: long dsRNA against Drosophila genes, 0.25 µg dsRNA per well of a 384-well plate
Timing: 5 days
Treatment: cells persistently infected with Wolbachia before knock-down; no added drug
Read-out: 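Automated imaging of bacterial rRNA staining divided by host cell count, reported as plate-normalised robust z-score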
Scale: Wolbachia per cell robust z: higher = more Wolbachia per host cell than the plate typical
Call rule: 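Hit when robust z is 1.5 or more, or -1.5 or less, in at least two of three replicates; excludes dsRNAs with several or no targets, genes not expressed in JW18 and well A1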

For Snap24 [DRSC16864], the values are Wolbachia per cell robust z, rep 1 = -0.709; Wolbachia per cell robust z, rep 2 = -0.79; Wolbachia per cell robust z, rep 3 = 0.186.
Knock-down of Sfxn2 [DRSC10718] came out at: Wolbachia per cell robust z, rep 1 = 0.0243 (active); Wolbachia per cell robust z, rep 2 = -2.09; Wolbachia per cell robust z, rep 3 = -2.05.
Knock-down of pll [DRSC17026] gave: Wolbachia per cell robust z, rep 1 = -0.274; Wolbachia per cell robust z, rep 2 = 1.32; Wolbachia per cell robust z, rep 3 = -0.451.
Silencing of pll [DRSC28551] resulted in: Wolbachia per cell robust z, rep 1 = 0.81; Wolbachia per cell robust z, rep 2 = 1.12; Wolbachia per cell robust z, rep 3 = 0.755.
Knock-down of DNaseII [DRSC16310] came out at: Wolbachia per cell robust z, rep 1 = 0.169; Wolbachia per cell robust z, rep 2 = -0.137; Wolbachia per cell robust z, rep 3 = 0.0491.
After knock-down of CG34265 [DRSC38852], the screen gave Wolbachia per cell robust z, rep 1 = 0.826; Wolbachia per cell robust z, rep 2 = 0.645; Wolbachia per cell robust z, rep 3 = 0.447.
With knock-down of Teh3 [DRSC08537], the screen gave Wolbachia per cell robust z, rep 1 = 0.678; Wolbachia per cell robust z, rep 2 = -3.61; Wolbachia per cell robust z, rep 3 = 0.0411.
After knock-down of Teh3 [DRSC29472], the screen gave Wolbachia per cell robust z, rep 1 = 0.405; Wolbachia per cell robust z, rep 2 = 0.272; Wolbachia per cell robust z, rep 3 = -1.13.
After knock-down of CG1662 [DRSC19754], the screen gave Wolbachia per cell robust z, rep 1 = 0.409; Wolbachia per cell robust z, rep 2 = -0.564; Wolbachia per cell robust z, rep 3 = 0.898.
Against Ctps + CG45071 [DRSC10728], the entry reads Wolbachia per cell robust z, rep 1 = 0.565; Wolbachia per cell robust z, rep 2 = 1.25; Wolbachia per cell robust z, rep 3 = -0.137.
With knock-down of Sidpn [DRSC02056] the results were Wolbachia per cell robust z, rep 1 = -4.7; Wolbachia per cell robust z, rep 2 = -2.09; Wolbachia per cell robust z, rep 3 = -8.13.
CG16713 [DRSC00477] gave Wolbachia per cell robust z, rep 1 = -2.99; Wolbachia per cell robust z, rep 2 = -0.883; Wolbachia per cell robust z, rep 3 = -0.668.
CG12896 + Prx6c + Prx6b [DRSC28111] showed Wolbachia per cell robust z, rep 1 = -1.57; Wolbachia per cell robust z, rep 2 = -0.699; Wolbachia per cell robust z, rep 3 = -0.138.
With knock-down of CG3168 [DRSC18287], the screen gave Wolbachia per cell robust z, rep 1 = 0.774; Wolbachia per cell robust z, rep 2 = 1.09; Wolbachia per cell robust z, rep 3 = 0.773.
Depletion of CG3168 [DRSC25481] resulted in: Wolbachia per cell robust z, rep 1 = -0.971; Wolbachia per cell robust z, rep 2 = -1.01; Wolbachia per cell robust z, rep 3 = -0.609.
Silencing of bsd [DRSC05953] gave: Wolbachia per cell robust z, rep 1 = -1.01; Wolbachia per cell robust z, rep 2 = 0.0641; Wolbachia per cell robust z, rep 3 = -3.7.
With knock-down of Pde8 [DRSC04503] the results were Wolbachia per cell robust z, rep 1 = -0.409 (active); Wolbachia per cell robust z, rep 2 = -2.29; Wolbachia per cell robust z, rep 3 = -5.07.
Against Pde8 [DRSC29684] the deposit lists Wolbachia per cell robust z, rep 1 = -1.13; Wolbachia per cell robust z, rep 2 = -0.622; Wolbachia per cell robust z, rep 3 = -7.25.
For Pde8 [DRSC40593] the deposit lists Wolbachia per cell robust z, rep 1 = 0.974; Wolbachia per cell robust z, rep 2 = 1.07; Wolbachia per cell robust z, rep 3 = 0.745.
Depletion of CG12061 [DRSC20715] resulted in: Wolbachia per cell robust z, rep 1 = -0.634; Wolbachia per cell robust z, rep 2 = -1.3; Wolbachia per cell robust z, rep 3 = 0.0108.
After knock-down of Gpo1 [DRSC07128], the record shows Wolbachia per cell robust z, rep 1 = -0.117; Wolbachia per cell robust z, rep 2 = 0.976; Wolbachia per cell robust z, rep 3 = 0.237.
Silencing of CG15449 [DRSC20521] resulted in: Wolbachia per cell robust z, rep 1 = 0.425; Wolbachia per cell robust z, rep 2 = 0.661; Wolbachia per cell robust z, rep 3 = 0.912.
CG11409 [DRSC18579] gave Wolbachia per cell robust z, rep 1 = -0.878; Wolbachia per cell robust z, rep 2 = 1.57; Wolbachia per cell robust z, rep 3 = 0.268.
CG11409 [DRSC28360] scored Wolbachia per cell robust z, rep 1 = -1.25; Wolbachia per cell robust z, rep 2 = -1.77; Wolbachia per cell robust z, rep 3 = -1.25.
For CG16743 [DRSC24981], the values are Wolbachia per cell robust z, rep 1 = -0.114; Wolbachia per cell robust z, rep 2 = -0.058; Wolbachia per cell robust z, rep 3 = -1.73.
Silencing of CG2247 [DRSC19844] came out at: Wolbachia per cell robust z, rep 1 = -3.94; Wolbachia per cell robust z, rep 2 = 1.03; Wolbachia per cell robust z, rep 3 = 0.396.
Against CG31809 [DRSC01561] the deposit lists Wolbachia per cell robust z, rep 1 = -0.246; Wolbachia per cell robust z, rep 2 = 0.248; Wolbachia per cell robust z, rep 3 = -0.738.
CG30496 [DRSC06805] gave Wolbachia per cell robust z, rep 1 = 0.307; Wolbachia per cell robust z, rep 2 = 0.049; Wolbachia per cell robust z, rep 3 = -2.57.
CG4511 [DRSC15589] scored Wolbachia per cell robust z, rep 1 = -2.79; Wolbachia per cell robust z, rep 2 = 0.0791; Wolbachia per cell robust z, rep 3 = -0.233.
Against CG4511 [DRSC28640] the deposit lists Wolbachia per cell robust z, rep 1 = 0.0164; Wolbachia per cell robust z, rep 2 = 0.954; Wolbachia per cell robust z, rep 3 = 0.349.
